The source of these data is PubChem BioAssay AID449764 (Southern Research Specialized Biocontainment Screening …, 2010).

The term IC90 denotes the concentration needed for an effect of 90%. A high value points to a need for much substance.

The subject of the assay is Mycobacterium tuberculosis H37Rv growth inhibition, no glycerol. Put plainly: Confirmatory growth inhibition assay, Mycobacterium tuberculosis H37Rv, absence of glycerol (AID 449764).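 Also: growth read after 7 days of incubation.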 The settings on record: measured here: IC90 growth inhibition.

Regarding `O=C(OC1CN2CCC1CC2)C1c2ccccc2Oc2ccccc21` (stereo unspecified), the IC90 came to 28.3 µM.
